Measured values published in PubChem BioAssay AID504770 (ICCB-Longwood Screening Facility, Harvard Medical School, 2011).
This is a selection; strong and weak results do not stand in their true shares. Calls of active or inactive are those of the source. Rule as the data show it: active = z-score below about -2 (passing the limit was not always enough); inactive = the rest.

Assay: PubChem AID 504770
Conditions: E. coli YBA685 rctB-dependent plasmid, OD600 growth, 3 h; hits give low values

SMILES	z-score
C=CCN1CCN(CCOC(=O)C(O)(c2ccccc2)c2ccccc2)CC1	inactive: 1.45
CC(=O)OC1(C#N)CN2CCC1CC2 (configuration not stated)	inactive: -0.4
Nc1nonc1OCc1nonc1COc1nonc1N	inactive: -0.6
O=P(Nc1nccs1)(c1ccccc1)c1ccccc1	inactive: -0.2
CC(=O)OC1CN2CCC1C(c1ccccc1)C2 (configuration not stated)	inactive: -0.7
Cc1ccccc1NP(C)(=O)Nc1ccccc1C	inactive: -0.25
O=P1(Nc2nc3ccc(Cl)cc3s2)COc2ccccc2O1 (configuration not stated)	inactive: -0.4
Cc1cc(NC2=NC3C(C(=O)N(C)C(=O)N3C)N2C)n(-c2ccccc2)n1 (configuration not stated)	inactive: 0.3
O=P1(Nc2nncs2)C=C(c2ccccc2)SC(c2ccccc2)=C1	inactive: -0.2
O=C(OCCN1CCN(CCOCc2ccccc2)CC1)C(O)(c1ccccc1)c1ccccc1	inactive: 0.8
O=C(OCC1CN(Cc2ccccc2)CCO1)C(O)(c1ccccc1)c1ccccc1 (configuration not stated)	inactive: -0.25
COc1cc2c(cc1NP(C)(=O)Oc1ccccc1)oc1ccccc12 (configuration not stated)	inactive: -0.45
O=C(OC1CN2CCC1CC2)c1ccccc1 (configuration not stated)	inactive: 0.1
COC(=O)c1cc2c(s1)N=C(c1ccccc1)N(C)P2(=O)N1CCOCC1 (configuration not stated)	inactive: 1.1
O=C(OC1/C(=C/c2ccccc2F)N2CCC1CC2)c1ccccc1 (configuration not stated)	inactive: -1.05
CC1CCC(C(C)C)C(OP(=O)(Nc2nccs2)c2ccccc2)C1 (configuration not stated)	inactive: -0.3
O=C(COC(=O)C(O)(c1ccccc1)c1ccccc1)N1CCCCC1	inactive: 0.15
CCOP(=Nc1nc2ccccc2n2nnnc12)(OCC)OCC	inactive: -0.75
CCOP(OCC)N1CCOCC1	inactive: 0.9

SMILES	z-score
CP(=O)(Nc1ccccn1)Oc1ccccc1 (configuration not stated)	inactive: -0.4
CCc1nc2c(n1)c1c(non1O)c1c2no[n+]1[O-]	inactive: -0.7
CCc1ccc(OP(C)(=O)Nc2cccnc2)cc1 (configuration not stated)	inactive: 0.85
OCCSCCO	inactive: -0.1
CP(=O)(Nc1ccc(Cl)cc1)Oc1ccc(F)cc1 (configuration not stated)	inactive: 0
O=C(O)CCC(=O)N=S(c1ccccc1)c1ccccc1.O=[N+]([O-])c1cc([N+](=O)[O-])c(O)c([N+](=O)[O-])c1	inactive: 1.35
CP(=O)(Nc1ccc(Cl)cc1)Oc1ccccc1 (configuration not stated)	inactive: -0.85
COc1ccccc1OP(C)(=O)Nc1ccccc1 (configuration not stated)	inactive: 0.15
CCN1C(=O)N(c2ccccc2)P(=S)(OC)c2cc3c(cc21)OCCO3 (configuration not stated)	inactive: -1
COP1(=S)c2c(C)nn(-c3ccccc3)c2N=C(c2ccccc2)N1C1CC1 (configuration not stated)	inactive: -0.3
CP(=O)(NC(=O)Nc1ccccc1)Oc1ccccc1 (configuration not stated)	inactive: 1.25
CCOC(=O)c1ccc(NP(C)(=O)Oc2ccc(OC)cc2)cc1 (configuration not stated)	inactive: 1.3
Cc1cccc(NP(C)(=O)Oc2ccccc2)c1 (configuration not stated)	inactive: 0.15
CCn1cccc/c1=N\P1(=S)OCCO1	inactive: -0.2
CN(C)P1(=O)Nc2ccccc2S1 (configuration not stated)	inactive: -0.2
O=P1(Nc2nccs2)CC=CC1	inactive: 0.85
O=C(OC1CN2CCC1CC2)C12CC3CC(CC(C3)C1)C2 (configuration not stated)	inactive: -0.3
CC1=Nc2ccc(C(F)(F)F)cc2C1(C)C	inactive: 1.35
O=C(O)C1(O)c2ccccc2-c2ccccc21	inactive: -0.15

SMILES	z-score
Cc1cc(C)cc(OP(C)(=O)NCc2ccccc2)c1 (configuration not stated)	inactive: 0.35
Nc1nonc1OCCOc1nonc1N	inactive: -0.8
COP1(=S)N=C2c3ccccc3CN2c2cc(N(C)C)ccc21 (configuration not stated)	inactive: -2
NC(=O)COC(=O)C1(O)c2ccccc2-c2ccccc21	inactive: -0.75
O=P1(Nc2nc3ccc(Cl)cc3s2)COc2ccccc2OC1	inactive: -0.8
CCOP1(=S)c2c(C)nn(CCC#N)c2N=C(c2ccc(F)cc2)N1C (configuration not stated)	inactive: 0.75
CC1(C)Nc2ccccc2OP1(=O)c1ccccc1 (configuration not stated)	inactive: -0.3
O=C(OC1CN2CCC1CC2)c1ccc(Cl)cc1 (configuration not stated)	inactive: -0.25
Cc1cccc(OCC(=O)OC2CN3CCC2CC3)c1 (configuration not stated)	inactive: -0.5
COc1cc(-n2cnnn2)ccc1-n1cnnn1	inactive: 1.4
O=P1(Nc2ccccn2)COc2ccccc2OC1	inactive: -0.25
Nc1nonc1-c1no[n+]([O-])c1-c1nonc1N	inactive: 2.05
Cc1ccc(C(=O)OC2CN3CCC2CC3)cc1 (configuration not stated)	inactive: -0.8
Cc1nn(-c2ccccc2)c2c1P(=O)(N1CCOCC1)N(C)C(c1ccccc1)=N2 (configuration not stated)	inactive: -0.9
Cc1nn(CCC#N)c2c1P(=O)(Nc1ccccc1Cl)N(C)C(c1ccc(F)cc1)=N2 (configuration not stated)	inactive: -1.15
CP(=O)(N1CCOCC1)N1CCOCC1	inactive: 0.45
Cc1cc(C)cc(OP(C)(=O)Nc2ccc(OC(C)C)cc2)c1 (configuration not stated)	inactive: 0.6
CCSP(=O)(c1ccccc1)c1ccccc1	inactive: 1.2
CC1(C)COP(=S)(N(C2=NCCC2)c2ccccc2)OC1	inactive: 1.5
